Construct, isoform or probe ends are uncertain for at least one entry. Tags and fusion partners may be left off the protein sequences shown.
Target: T1, PerR WT (Streptococcus pyogenes (GAS) serotype M1 A20) (UniProt Q9A1M6)
T1 sequence (looked up, limits assumed): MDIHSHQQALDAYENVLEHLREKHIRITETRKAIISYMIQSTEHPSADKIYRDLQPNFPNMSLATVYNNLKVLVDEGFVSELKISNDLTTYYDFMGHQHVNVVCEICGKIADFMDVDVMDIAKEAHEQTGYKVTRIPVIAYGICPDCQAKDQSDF
Assay: EMSA
Conditions: EMSA: 20 mM Tris pH 8.0, 50 mM KCl, 5% glycerol, 50 ug/ml BSA, 15 min at 25 C; 6% native PAGE in Tris-borate, ethidium bromide; recombinant protein; protein details: C-terminal 6xHis (pET-21b NdeI/XhoI); probe letters rebuilt from the primers and the genome

## GGGGTACCCGAGTGTGTTTGTCATAATAACATCTCCTTACTTTTCAGCTTAAAGGGCAAGAATGGAGAGGGAACTAACCCTAACGTGATAAACATAAGAAAGGGTTAAGGACCTAATCCTATTCGACAATAACGGAATAATCCTAATTGGATGATTAGACACTTAATTAGAATCATTATCGTTTTATATCTATATTCTACAATGATTAAGGAAAGATTGCAAGTATTTGATTTCTTTTCGAATAAATAAGTATGATAGCTTTTTTTAGTATATGTTCGGGCATCTTATTGACCCATCTTTTTTACTGTTTACTACTTTATTTTCCTGATAATGGTCAAGAGCAGCTAAGTAAACAGACTGTCATTGTTTGTGACCAACTAACTTTTGCCAAACGCGTTTTTCGGCAGTTCCAAAACCATTTTATAACGAGCTCCGG (double strand) [dpr promoter (-403 to +16)]
  binding result: binds

Reference: publication PMC3931707, “Distinct Structural Features of the Peroxide Response Regulator from Group A Streptococcus Drive DNA Binding”
